This passage reports IC50 and EC50 results from patent US20020028807A1, “Non-nucleoside reverse transcriptase inhibitors” (priority 2000, published 2002).

Assay [1] deals with HIV-1 RT K103N/P225H (Human immunodeficiency virus type 1 group M subtype B, UniProt P03366, K702N/P824H). The experiment in a line: Reverse transcriptase (RT) assay, K103N/P225H mutant. The assay is classed as biochemical. The settings on record: read-out: IC50 K103N/P225H; RT double mutant K103N/P225H. The text has this: (§1) Among the enzymes for which Human Immunodeficiency Virus (HIV-1) encodes is a reverse transcriptase (1), so-named because it transcribes a DNA copy from an RNA template. This activity can be quantitatively measured in a cell-free enzyme assay and is based upon the observation that reverse transcriptase is able to use a synthetic template poly r(C) primed with a biotinylated oligo d(G) to transcribe a radio-labelled DNA strand utilising 3H-dGTP as a substrate. The assay described below utilises the wild-type enzyme (which is the predominant form of the enzyme observed in patients infected with HIV-1) and can also be used with mutant RT enzymes (for example, Y181C, prepared by site-directed mutagenesis in which the tyrosine residue at codon 181 has been replaced by a cysteine residue) in analogous assay conditions. This assay allows compounds to be evaluated for their effectiveness at inhibiting the mutant enzymes.
(§2) Some HIV-1 IIIB clone BH10 RT mutants were provided by Dr. C.-K. Shih (Boehringer Ingelheim Pharmaceutials Inc., U.S.A.) in the vector pKK233-2 (Pharmacia). Briefly an HIV RT clone pKRT2 containing only the RT p66 gene regulated by the lac operon/trc promoter was obtained from Dr. W. Summers (Yale University) (2). A variety of specific amino acid substitutions were introduced into the wild-type RT gene by site-directed mutagenesis. […]

Assay [2] addresses HIV-1 RT Y188C (Human immunodeficiency virus type 1 group M subtype B, UniProt P03366, Y787C). The experiment in a line: Reverse transcriptase (RT) assay, Y188C mutant. Particulars: read-out: IC50 Y188C. The assay is classed as biochemical.
From the text: as §1, §2

Assay [3] deals with HIV-1 RT K103N/Y181C (Human immunodeficiency virus type 1 group M subtype B, UniProt P03366, K702N/Y780C). In words: Reverse transcriptase (RT) assay, K103N/Y181C mutant. Particulars: read-out: IC50 K103N/Y181C; RT double mutant K103N/Y181C. The class given is biochemical.
From the text: as §1
(§3) Some HIV-1 IIIB clone BH10 RT mutants were provided by Dr. C.-K. Shih (Boehringer Ingelheim Pharmaceutials Inc., U.S.A.) in the vector pKK233-2 (Pharmacia). Briefly an HIV RT clone pKRT2 containing only the RT p66 gene regulated by the lac operon/trc promoter was obtained from Dr. W. Summers (Yale University) (2). A variety of specific amino acid substitutions were introduced into the wild-type RT gene by site-directed mutagenesis. RT clones were subcloned into the pKK233-2 bacterial expression vector. Clones provided included wild-type, Val106Ala, Tyr181Cys, Tyr188Cys, Tyr188Leu, Gly190Ala and Pro236Leu. Others were made in-house by site-directed mutagenesis of the pKK233-2 RT clones including Lys103Asn, Lys103Asn/Tyr181Cys, Lys103Asn/Leu100Ile, Lys103Asn/Pro225His, and Lys103Asn/Val108Ile.
(§4) Purification of recombinant reverse transcriptase was performed using a combination of methods previously described (3). A single colony from a fresh plate of transformed JM109 cells was used to initiate growth of a pre-culture grown o/n at 37° C. Two liters of growth medium were inoculated with this pre-culture. […]

In assay [4] the target is HIV-1 RT V106A (Human immunodeficiency virus type 1 group M subtype B, UniProt P03366, V705A). The experiment in a line: Reverse transcriptase (RT) assay, V106A mutant. The assay is classed as biochemical. Particulars: read-out: IC50 V106A.
From the text: as §1, §3, §4

For assay [5], the target named is HIV-1 RT K103N/V108I (Human immunodeficiency virus type 1 group M subtype B, UniProt P03366, K702N/V707I). The experiment in a line: Reverse transcriptase (RT) assay, K103N/V108I mutant. The assay is classed as biochemical. Particulars: read-out: IC50 K103N/V108I; RT double mutant K103N/V108I.
From the text: as §1, §2

Assay [6] deals with HIV coding for mutant reverse transcriptase K103N/Y181C. In words: ELISA (p24) assay of HIV replication in C8166 cell culture, K103N/Y181C virus. Particulars: read-out: EC50 K103N/Y181C, C8166 cells, extracellular p24, three days. The class given is cell-based, HIV-1. As for the experimental part:
(§5) Compounds of the invention were tested for their ability to inhibit HIV replication in cell culture in a 96-well plate assay. Complete RPMI 1640, consisting of RPMI 1640+10% fetal bovine serum, 10 μg/ml gentamycin and 10 μM β-mercaptoethanol was used for dilution of the compound as well as cell growth medium. The T lymphocyte cell line C8166 was infected at a multiplicity of infection of 0.001 with viruses coding for wild-type and mutant reverse transcriptase. Cells were then incubated for three days in the presence of serial dilutions of the compounds of the invention. The supernatant was pooled from eight replica wells and the concentration of extracellular p24 was determined using a commercially available HIV-1 p24 antigen assay kit (Beckman-Coulter®). The level of inhibition (% inhibition) was calculated with the following equation: [formula]
On the technique in general: ELISA stands for enzyme-linked immunosorbent assay.

The target of assay [7] is HIV-1 RT K103N (Human immunodeficiency virus type 1 group M subtype B, UniProt P03366, K702N). The experiment in a line: Reverse transcriptase (RT) assay, K103N mutant. The assay is classed as biochemical. The settings on record: read-out: IC50 K103N.
From the text: as §1, §2

Assay [8] addresses HIV-1 RT wild-type (WT) (Human immunodeficiency virus type 1 group M subtype B, UniProt P03366). In words: Reverse transcriptase (RT) assay, wild-type enzyme. The assay is classed as biochemical. Particulars: read-out: IC50 WT RT.
From the text: as §1, §3, §4

Assay [9] concerns the target HIV-1 RT Y181C (Human immunodeficiency virus type 1 group M subtype B, UniProt P03366, Y780C). In words: Reverse transcriptase (RT) assay, Y181C mutant. The assay is classed as biochemical. Particulars: read-out: IC50 Y181C.
From the text: as §1, §2

In assay [10] the target is HIV-1 RT Y188L (Human immunodeficiency virus type 1 group M subtype B, UniProt P03366, Y787L). The experiment in a line: Reverse transcriptase (RT) assay, Y188L mutant. The settings on record: read-out: IC50 Y188L. The assay is classed as biochemical.
From the text: as §1, §3, §4

For assay [11], the system named is HIV coding for wild-type reverse transcriptase (WT RT). In words: ELISA (p24) assay of HIV replication in C8166 cell culture, wild-type RT virus. The class given is cell-based, HIV-1. Particulars: read-out: EC50 WT RT, C8166 cells, extracellular p24, three days. As for the experimental part: as §5
Assay [12] has as its target HIV-1 RT K103N/L100I (Human immunodeficiency virus type 1 group M subtype B, UniProt P03366, K702N/L699I). In words: Reverse transcriptase (RT) assay, K103N/L100I mutant. The class given is biochemical. Particulars: read-out: IC50 K103N/L100I; RT double mutant K103N/L100I.
From the text: as §1, §2

In assay [13] the test system is HIV coding for mutant reverse transcriptase Y181C. In words: ELISA (p24) assay of HIV replication in C8166 cell culture, Y181C virus. The assay is classed as cell-based, HIV-1. The settings on record: read-out: EC50 Y181C, C8166 cells, extracellular p24, three days. As for the experimental part:
as §5

Assay [14] has as its system HIV coding for mutant reverse transcriptase Y188L. The experiment in a line: ELISA (p24) assay of HIV replication in C8166 cell culture, Y188L virus. The class given is cell-based, HIV-1. The settings on record: read-out: EC50 Y188L, C8166 cells, extracellular p24, three days. How it is done: as §5
The subject of assay [15] is HIV coding for mutant reverse transcriptase V106A. The experiment in a line: ELISA (p24) assay of HIV replication in C8166 cell culture, V106A virus. The assay is classed as cell-based, HIV-1. The settings on record: read-out: EC50 V106A, C8166 cells, extracellular p24, three days. As for the experimental part:
as §5

Turning to `CCN1c2ncc(CCOc3cccc4c3ccc[n+]4[O-])cc2C(=O)N(C)c2ccc(Cl)nc21`, the IC50 in [1] turned out to be 0.017 µM; in assay [2], 0.064 µM; in assay [3], 0.051 µM; in [4] it was 0.661 µM; in assay [5] it was 0.044 µM; in [7] it was 0.036 µM. Besides, the IC50 in assay [8] was determined as 0.01 µM; in [9] it was 0.022 µM; in assay [10] it was 0.439 µM. The EC50 in [6] came to 0.011 µM; in assay [11] it was 0.0004 µM.
Regarding `CCN1c2ncc(CCOc3cccc4c3ccc[n+]4[O-])cc2C(=O)Nc2c(C)cc(Cl)nc21`, the IC50 in assay [1] worked out at 0.016 µM; in [3], 0.091 µM; in [4] it was 0.089 µM; in assay [12], 0.027 µM; in assay [5], 0.056 µM; in assay [7] it was 0.025 µM. In addition, the IC50 in assay [8] was determined as 0.007 µM; in assay [9], 0.02 µM; in assay [10], 3.94 µM. Besides, the EC50 in assay [6] was 0.022 µM; in assay [11], 0.00037 µM.
Regarding `CCN1c2ncc(CCOc3cc[n+]([O-])c4ccccc34)cc2C(=O)N(C)c2ccc(C(F)(F)F)nc21`, the IC50 in assay [3] was 0.084 µM; in assay [4], 0.893 µM; in [8], 0.035 µM; in assay [10], 0.578 µM. The EC50 in assay [13] amounted to 0.083 µM; in assay [14], 0.0035 µM; in assay [15] it was 0.065 µM; in assay [11], 0.0016 µM.
